Compound potency records, mixed from different reports. Data source: NIAID ChemDB in PubChem.

All rows: growth or infection tests; agent: HIV-1; read by: syncytia; endpoint: fold resistance

Lines come from different laboratories, so protocols vary. An empty or dashed field is not shown. Fold resistance: result on the changed form divided by that on wild type.

compound | cells | mutations | strain or isolate | value
CC(C)=CCOc1cc(NC(=S)c2ccoc2C)ccc1Cl | CEM | RT-V106A | IIIB | 2
CCOCn1c(Cc2cc(C)cc(C)c2)c(CC)c(=O)[nH]c1=O | CEM | RT-Y181I | IIIB | 350
CC1=C(C(=O)Nc2ccc(C)c(C(=O)OC(C)C)c2)SCCO1 | CEM | RT-L100I | TIBO-resistant (RT L100I) | 15.6
CCOCn1c(Cc2ccccc2)c(C(C)C)c(=O)[nH]c1=O | CEM | RT-Y181I | IIIB | 13500
CC(C)OC(=O)c1cc(NC(=O)OCC2CC2)ccc1Cl | CEM | RT-E138K | - | 13.3
C=C(Cl)COc1cc(NC(=S)c2ccoc2C)ccc1Cl | CEM | RT-Y188H | HEPT-resistant (RT Y188H) | 42.6
C=CCOC(=O)c1cc(NC(=S)OC(C)C)ccc1Cl | CEM | RT-V106A | - | 2.5
CCc1c(Sc2ccccc2)n(COCc2ccccc2)c(=O)[nH]c1=O | CEM | RT-Y188H | IIIB | 6500
C=C(C)[C@@H]1CC[C@]2(C(=O)NCCCCCCCC(=O)N[C@@H](CC(C)C)[C@@H](O)CC(=O)O)CC[C@]3(C)[C@H](CC[C@@H]4[C@@]5(C)CC[C@H](O)C(C)(C)[C@@H]5CC[C@]43C)[C@@H]12 | HeLa P4 + HeLa | GP41-E109D A109D | LAI | ~1
CC1=C(C(=O)Nc2ccc(Cl)c(C(=O)OC3CCCC3)c2)SCCO1 | CEM | RT-V106A | Nevirapine-resistant (RT V106A) | 35
CCOC(=O)c1cc(NC(=S)OC(C)C)ccc1SC | CEM | RT-V106A | - | 83.5
CC(C)OC(=O)c1cc(NC(=S)OC(C)C)ccc1Cl | CEM | RT-L100I | IIIB | 71
CCOC(=O)c1cc(NC(=O)C2=C(C)OCCS2)ccc1Cl | CEM | RT-Y181C | PYR-resistant (RT Y181C) | >100
CC(C)c1c(Sc2ccccc2)n(COCCO)c(=O)[nH]c1=O | CEM | RT-Y188H | IIIB | >357
C/C(Cl)=C/COc1cc(NC(=S)c2ccoc2C)ccc1Cl | CEM | RT-V106A | Nevirapine-resistant isolate (RT V106A) | 4
CC1=C(C(=O)Nc2ccc(Cl)c(C(=O)OC3CCCCC3)c2)SCCO1 | CEM | RT-E138K | TSAO-resistant (RT E138K) | 87.5
C=C(Cl)COc1cc(NC(=S)c2ccoc2C)ccc1C | CEM | RT-V106A | Nevirapine-resistant isolate (RT V106A) | 7.44
C#CCOC(=O)c1cc(NC(=S)OC(C)C)ccc1Cl | CEM | RT-V106A | - | ≥34.5
COCCOC(=O)c1cc(NC(=O)C2=C(C)OCCS2)ccc1Cl | CEM | RT-V106A | Nevirapine-resistant (RT V106A) | >16.7
C/C=C\COc1cc(NC(=S)OC(C)C)ccc1Cl | CEM | RT-E138K | - | 22.6
CC1=C(C(=O)Nc2ccc(Cl)c(C(=O)OC(C)C)c2)SCCO1 | CEM | RT-Y181C | IIIB | 1000
CSC(=Nc1ccc(Cl)c(C(=O)OC(C)C)c1)OC(C)C | CEM | RT-E138K | - | >1
COc1ccc(NC(=O)c2ccoc2C)cc1OCC=C(Cl)Cl | CEM | RT-E138K | TSAO-m3T-resistant (RT E138K) | 40
CCCOC(=O)c1ccc(C)c(NC(=O)C2=C(C)OCCS2)c1 | CEM | RT-E138K | TSAO-resistant (RT E138K) | >10
CC(C)=CCOc1cc(NC(=S)c2ccoc2C)ccc1Cl | CEM | RT-Y181C | IIIB | 36.6
CC(C)OC(=O)c1cc(NC(=S)OCC2CC2)ccc1Cl | CEM | RT-L100I | - | 35.6
Cc1sccc1C(=O)Nc1ccc(Cl)c(OCC=C(Cl)Cl)c1 | CEM | RT-E138K | TSAO-m3T-resistant (RT E138K) | 10.6
CC(C)OC(=O)c1cc(NC(=S)OCC2(C)COC2)ccc1Cl | CEM | RT-L100I | - | >1.07
CCC1=C(C(=O)Nc2ccc(Cl)c(C(=O)OC(C)C)c2)SCCO1 | CEM | RT-E138K | TSAO-resistant (RT E138K) | 15
CSc1ccc(NC(=S)OC(C)C)cc1C(=O)OC(C)C | CEM | RT-Y181C | - | 42.5
Cc1cc(C)cc(Cc2c(C(C)C)c(=O)[nH]c(=O)n2COCCO)c1 | CEM | RT-Y181I | IIIB | >58.8
CC(=O)OCCOC(=O)c1cc(NC(=S)OC(C)C)ccc1Cl | CEM | RT-E138K | - | >10
COc1ccc(NC(=S)c2ccoc2C)cc1OCC=C(Cl)Cl | CEM | RT-Y188H | HEPT-resistant (RT Y188H) | 833
C=C(C)COc1cc(NC(=S)OC(C)C)ccc1Cl | CEM | RT-Y181C | - | >11.1
Cc1occc1C(=O)Nc1ccc(Cl)c(/C=N/N(C)C)c1 | CEM | RT-Y181C | L-697 661-resistant RT Y181C | <8.89
CSCCOC(=S)Nc1ccc(Cl)c(C(=O)OC(C)C)c1 | CEM | RT-V106A | - | 12.2
Cc1sccc1C(=S)Nc1ccc(Cl)c(OCC=C(Cl)Cl)c1 | CEM | RT-V106A | Nevirapine-resistant isolate (RT V106A) | 9.29
CCCOC(=S)Nc1ccc(Cl)c(C(=O)OC(C)C)c1 | CEM | RT-L100I | - | 54.1
CC1=C(C(=O)Nc2cc(C(=O)OC(C)C)c(C)cc2F)SCCO1 | CEM | RT-E138K | TSAO-resistant (RT E138K) | >4.35